Experimental data as given in patent EP3144007A1 (priority 2015, dated 2017).

Amino acid sequences for entries named in this document (tags omitted). Residues count along the entry.
UniProt P04958, 865-1315 limits assumed: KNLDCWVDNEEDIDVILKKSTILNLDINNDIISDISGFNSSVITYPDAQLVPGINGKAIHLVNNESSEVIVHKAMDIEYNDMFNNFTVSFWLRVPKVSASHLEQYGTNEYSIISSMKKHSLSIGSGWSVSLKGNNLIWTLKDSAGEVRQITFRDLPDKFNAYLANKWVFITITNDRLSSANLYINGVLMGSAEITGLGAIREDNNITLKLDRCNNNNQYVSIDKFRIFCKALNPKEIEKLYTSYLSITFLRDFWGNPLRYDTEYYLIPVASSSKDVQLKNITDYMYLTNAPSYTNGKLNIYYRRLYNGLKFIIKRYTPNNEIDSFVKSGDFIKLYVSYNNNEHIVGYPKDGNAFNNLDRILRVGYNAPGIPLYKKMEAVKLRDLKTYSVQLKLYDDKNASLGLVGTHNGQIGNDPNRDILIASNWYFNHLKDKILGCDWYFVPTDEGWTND

Molecular target: Hc-TeNT (Clostridium tetani, UniProt P04958)
Assay: Dot-blot assay: binding of recombinant Hc-TeNT fragment to peptide attached to a nitrocellulose membrane
Conditions: 10 µg and 20 µg of peptide on nitrocellulose; Hc-TeNT 10 ng/ml; anti poly-Histidine detection

CSCC[C@@H]1NC(=O)CNC(=O)[C@H](CC(N)=O)NC(=O)[C@H](CC(N)=O)NC(=O)[C@H](CCSC)NC(=O)[C@H](Cc2c[nH]cn2)NC(=O)[C@H]([C@@H](C)O)NC(=O)[C@@H]2CCCN2C(=O)[C@H](CC(N)=O)NC(=O)[C@H](CC(=O)O)NC(=O)[C@H](CC(C)C)NC(=O)[C@H](CCC(N)=O)NC(=O)[C@H](CC(C)C)NC(=O)[C@@H](NC(=O)CN)CSSC[C@@H](C(=O)N[C@@H](CC(N)=O)C(=O)N[C@@H](CC(N)=O)C(=O)NCC(=O)O)NC(=O)[C@H](Cc2c[nH]cn2)NC(=O)[C@H]([C@@H](C)O)NC(=O)[C@@H]2CCCN2C(=O)[C@H](CC(N)=O)NC(=O)[C@H](CC(=O)O)NC(=O)[C@H](CC(C)C)NC(=O)[C@H](CCC(N)=O)NC(=O)[C@H](CC(C)C)NC1=O [d5 peptide]
Hc-TeNT binding to the membrane-attached peptide: able to bind specifically
